Structure probing of HIV-1 leader RNA with DMS

Values reported by Ye et al. 2022 (doi:10.1038/s41594-022-00746-2).

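Mutant RNA libraries with 1G, 2G or 3G starts, with or without cap, were folded at 37 °C for 30 min. High salt was 300 mM KCl and 5 mM MgCl2, low salt 40 mM KCl and 0.1 mM MgCl2; monomer and dimer were parted on a native gel. Gel slices were treated with 170 mM dimethyl sulfate for 15 min at 37 °C and read by mutational profiling against an ethanol control.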

RNA: 5' end of the HIV-1 NL4-3 genome, made in vitro. Positions 1-437 read:
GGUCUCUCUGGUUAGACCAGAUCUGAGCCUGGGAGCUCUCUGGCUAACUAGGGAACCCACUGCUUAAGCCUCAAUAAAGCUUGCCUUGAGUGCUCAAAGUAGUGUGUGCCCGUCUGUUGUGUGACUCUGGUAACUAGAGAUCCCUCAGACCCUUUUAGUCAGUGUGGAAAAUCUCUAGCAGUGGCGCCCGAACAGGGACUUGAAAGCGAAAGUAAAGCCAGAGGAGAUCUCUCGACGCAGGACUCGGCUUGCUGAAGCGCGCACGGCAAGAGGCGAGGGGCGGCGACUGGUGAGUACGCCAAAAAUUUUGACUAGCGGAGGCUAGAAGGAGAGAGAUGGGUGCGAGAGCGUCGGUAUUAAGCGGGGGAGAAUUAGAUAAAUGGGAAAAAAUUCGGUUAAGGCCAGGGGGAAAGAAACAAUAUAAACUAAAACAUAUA

Scale: normalised reactivity, A and C only; low values point to paired or protected bases, higher values to unpaired ones. Sample: 1G capped high-salt monomer. One numbering serves 1G, 2G and 3G. A position is written with its base.

position	domain	1G capped high-salt monomer
A271	SL1	0.54
C274	SL1	0.59
A276	SL1	0.94
C281	none	0.43
C284	SL2	0.19
A286	SL2	0.54
C287	SL2	0.32
A293	SL2	0.80
A296	SL2	0.58
C297	SL2	0.16
C299	SL2	0.07
C300	none	0.08
A301	none	0.24
A302	none	1.21
A303	none	0.08
A304	none	0.16
A305	none	0.74
A311	none	1.19
C312	SL3	0.11
A314	SL3	0.04
C316	SL3	0.10
A319	SL3	0.86
C322	SL3	0.04
A324	SL3	0.12
A326	none	0.85
A327	none	1.00
A330	none	0.95
A332	none	0.62
A334	AUG	0.51
A336	AUG	0.87
C343	AUG	0.37
A345	none	1.22
A347	none	0.27
C349	none	0.33
C352	none	0.44
A356	none	1.03
A359	none	0.42
A360	none	0.42
C362	none	0.31
A368	none	1.00
A370	none	0.52
A371	none	0.95
A374	none	0.47
A376	none	0.74
A378	none	0.23
A379	none	0.60
A380	none	0.85
A385	none	0.52
A386	none	1.33
A387	none	0.24
A388	none	0.08
A389	none	0.17
A390	none	0.94
C393	none	0.67
A398	none	0.22
A399	none	0.30
C402	none	0.04
C403	none	0.04
A404	none	0.20
A410	none	0.40
A411	none	0.83
A412	none	0.54
A414	none	0.49
A415	none	0.24
A416	none	0.53
C417	none	0.95
A418	none	0.67
A419	none	0.49
A421	none	0.38
A423	none	0.43
A424	none	0.34
A425	none	0.53
C426	none	0.80
A428	none	0.10
A429	none	0.73
A430	none	0.55
A431	none	0.62
C432	none	0.94
A433	none	0.75
A435	none	0.51
A437	none	0.04